Assays:
[1] = test system: Plasmodium falciparum Dd2 (chloroquine-resistant); assay: In vitro drug susceptibility assay, Dd2 strain (flow cytometry, SYBR Green I / MitoTracker Deep Red); format: cell-based; settings: selectivity index: CC50 value of HEK293 cell/IC50 value of PfDd2; 100 used as CC50 where >100 µM
Description: (§1) The cultures were maintained under an atmosphere of 5% CO2, 5% O2, and 90% N2. Fresh complete medium was provided daily, and rapid-stained (Panotico) blood smears were examined.
(§2) To evaluate the effects of synthetic compounds on the intraerythrocytic development of P. falciparum, we analyzed parasitemia by flow cytometry with 0.3% initial parasitemia and 1% hematocrit in the assay. Plates were incubated with the compounds at concentrations ranging from 0.10 to 100 µM for 72 h. Dual staining with SYBR Green I (SG-I) (Invitrogen, Waltham, MA, USA) and MitoTracker Deep Red (MT-Red) (Invitrogen) were used to label nucleic acids and mitochondria, respectively. Approximately 10,000 cells were counted by an Accuri C6 (Becton Dickinson, San Jose, CA, USA) and analyzed by FlowJo 5 software. Parasitemia was determined from the analysis of dot plots (side scatter versus fluorescence).
(§3) We determined the susceptibility of P. falciparum to the indole compounds and investigated whether CQR parasites responded differently to the compounds. […] We determined the IC50 values for each compound by analyzing viable and non-viable parasites after compound treatment, represented in dot plots (Figure 1H).

[2] = test system: Plasmodium falciparum 3D7 (chloroquine-sensitive); assay: In vitro drug susceptibility assay, 3D7 strain (flow cytometry, SYBR Green I / MitoTracker Deep Red); format: cell-based; settings: selectivity index: CC50 value of HEK293 cell/IC50 value of Pf3D7; 100 used as CC50 where >100 µM
Description: as §1, §2, §3

## COC(=O)Cc1c(Sc2ccccc2)[nH]c2ccccc12 [Compound 3]
[1]
  SI Dd2: 0.84
[2]
  SI 3D7: 1.44

## COC(=O)Cc1c(Sc2cccc(O)c2)[nH]c2ccccc12 [Compound 7]
[1]
  SI Dd2: 0.57
[2]
  SI 3D7: 0.54

## COC(=O)Cc1c(Sc2ccccc2C(=O)O)[nH]c2ccccc12 [Compound 8]
[1]
  SI Dd2: > 2.31
[2]
  SI 3D7: >2.68

## COC(=O)Cc1c(Sc2ncccn2)[nH]c2ccccc12 [Compound 10]
[1]
  SI Dd2: > 2.29
[2]
  SI 3D7: >1.82

## COC(=O)Cc1c(SCc2ccccc2)[nH]c2ccccc12 [Compound 14]
[1]
  SI Dd2: 0.63
[2]
  SI 3D7: 1.14

## COC(=O)Cc1c(SC(C)(C)C)[nH]c2ccccc12 [Compound 16]
[1]
  SI Dd2: 0.55
[2]
  SI 3D7: 0.84

## CCSc1[nH]c2ccccc2c1CC(=O)OC [Compound 17]
[1]
  SI Dd2: 0.75
[2]
  SI 3D7: 1.06

## COC(=O)Cc1c(SC23CC4CC(CC(C4)C2)C3)[nH]c2ccccc12 [Compound 18]
[1]
  SI Dd2: 1.07
[2]
  SI 3D7: 1.24

## COC(=O)Cc1c(SCCCCO)[nH]c2ccccc12 [Compound 19]
[1]
  SI Dd2: 0.70
[2]
  SI 3D7: 1.01

## COC(=O)Cc1c(SCCCCCCCCCCC(=O)O)[nH]c2ccccc12 [Compound 20]
[1]
  SI Dd2: >11.47
[2]
  SI 3D7: >3.47

## CCCCCCCCCCCCSc1[nH]c2cc(Cl)ccc2c1CC(=O)OC [Compound 21]
[1]
  SI Dd2: >5.93
[2]
  SI 3D7: >5.24

## COC(=O)Cc1c(Sc2ccccc2)[nH]c2ccc(OC)cc12 [Compound 25]
[1]
  SI Dd2: 0.28
[2]
  SI 3D7: 0.50

## c1ccc(Cc2c(Sc3ccccc3)[nH]c3ccccc23)cc1 [Compound 26]
[1]
  SI Dd2: 0.97
[2]
  SI 3D7: 2.58
